Test results from publication PMC3877901, “Screening Mangrove Endophytic Fungi for Antimalarial Natural Products” (Marine Drugs, 2013).

Tested on: Plasmodium falciparum (3D7, a drug sensitive strain)
Assay: Malaria assay: anti-malarial activity against Plasmodium falciparum (3D7)
Format: cell-based
Settings: read-out: IC50 (nM) 3D7

CC1=CC(=O)OCC23CCC(C)=CC2OC2CC(OC(=O)C=CC=CC(C(C)O)OCC1)C3(C)C21CO1 (stereo not shown)
IC50: < 20 nM
